Pooled drug test results. Numbers come from NIAID ChemDB, via PubChem.

Shared fields: tests in culture; agent: HIV-1; cell line: HeLa; endpoint: EC50

An empty or dashed field is not shown. ECn is the concentration giving n% inhibition of infection, replication or growth. Rows are shuffled and stem from different studies. a–b is a range or a potency band.

structure,strain or isolate,mutations,read by,conditions,result
C[C@@H]1CN(C(=O)c2ccccc2)CCN1C(=O)C(=O)c1c[nH]c2c(-c3ccc(Cl)cc3)nccc12,-,-,luciferase,-,<1 µM
COc1ncc(OC)c2c(C(=O)C(=O)N3CCC(=C(C#CC(C)C)c4ccccc4)CC3)c[nH]c12,-,-,luciferase,-,<1 µM
C[C@@H]1CN(C(=O)c2ccccc2)CCN1C(=O)C(=O)c1cc2ccccc2cn1,-,-,luciferase / reporter gene,-,<1 µM
CC(C)C1CN(C(=O)C(=O)c2c[nH]c3cccc(F)c23)CCN1C(=O)c1ccccc1,LAI,-,luciferase / reporter gene,pseudotyped,0.0233 µM
O=C(C(=O)N1CCC(=Cc2ccccc2)CC1)c1c[nH]c2c(-c3ncon3)ccc(F)c12,-,-,luciferase,-,<1 µM
CC(C)[C@@H](CO)n1cc(C(=O)O)c(=O)c2nc(Cc3cccc(Cl)c3F)ccc21,-,-,luciferase,40% human serum,>2.5 µM
C[C@@H]1CN(C(=O)c2ccccc2)CCN1C(=O)C(=O)c1ccc2cc(C(=O)O)ccc2c1,-,-,luciferase / reporter gene,-,<1 µM
COc1ncc(OC)c2c(C(=O)C(=O)N3CCC(=C(c4ccccc4)c4ccc(C#N)cc4)CC3)c[nH]c12,-,-,luciferase,-,<1 µM
CC1CN(C(=O)c2ccccc2)CCN1C(C#N)C(=N)c1ccc2cc(O)ccc2n1,-,-,luciferase / reporter gene,-,>0.5 µM
N#CC(N)=NCCN=C(N)NC(N)=[NH+]CCCCCC[NH+]=C(N)NC(N)=NCCN.[Cl-].[Cl-],IIIB,-,β-galactosidase,-,100.5 µM
COc1cccc2[nH]cc(C(=O)C(=O)N3CCN(C(=O)c4ccccc4)C[C@H]3C)c12,LAI,-,luciferase / reporter gene,pseudotyped,0.00093 µM
CC1CN(C(=O)c2ccccc2)CCN1C(=O)Cc1ccc2ccccc2c1,-,-,luciferase / reporter gene,-,1–5 µM
CC1CN(C(=O)C(=O)c2c[nH]c3ccccc23)CC/C1=C\c1ccccc1,-,-,luciferase,-,1–5 µM
Cc1cc(C)c(Nc2nc(Nc3ccc(C#N)cc3)nc3ccsc23)c(C)c1,-,-,luciferase,-,<0.01 µM
COc1cnc(-c2n[nH]c(C)n2)c2[nH]cc(C(=O)C(=O)N3CCC(=C(c4ccccc4)c4nnc(C)o4)CC3)c12,-,-,luciferase,-,<1 µM
Cc1cc(C)c(Oc2nc(Nc3ccc(C#N)cc3)nc3sc4c(c23)CCCC4)c(C)c1,-,-,luciferase,-,0.01–0.1 µM
COc1ccc2[nH]c(C(=O)NCc3ccc(Cl)c(Oc4cc(Cl)cc(C#N)c4)c3)cc2c1,HXB2,Y181C in RT,-,-,>1 µM
CC1CN(C(=O)c2ccccc2)CCN1C(=O)C(=O)c1ccc2c(O)cccc2n1,-,-,luciferase / reporter gene,-,<1 µM
CC1CN(C(=O)C(=O)c2c[nH]c3ccccc23)CC/C1=C(/C#N)c1ccccc1,-,-,luciferase,-,<1 µM
C[C@@H]1CN(C(=O)c2ccccc2)CCN1C(C#N)C(=O)c1ccc2cnccc2n1,-,-,luciferase / reporter gene,-,<1 µM
C[C@@H]1CN(C(=O)c2ccccc2)CCN1C(=O)C(=O)c1c[nH]c2nc(-c3ccccc3)ccc12,-,-,luciferase,-,<10 µM
COc1ccc2nc(C(=O)C(C#N)N3CCN(C(=O)c4ccccc4)CC3C)ccc2c1,-,-,luciferase / reporter gene,-,<1 µM
O=C(C(=O)N1CCN(C(=O)c2ccccc2)CC1)c1c[nH]c2c(C(=O)c3cccs3)ccnc12,-,-,luciferase,-,<1 µM
Cc1cc(C#N)cc(C)c1Oc1nc(Nc2ccc(C#N)cc2)nc2ccsc12,Y181C,-,luciferase,-,0.01–0.1 µM
N#CC(N)=NCCC[NH+]=C(N)NC(N)=NCCCCCC[NH+]=C(N)NC(N)=NCCN.[Cl-].[Cl-],IIIB,-,β-galactosidase,-,88 µM
COc1cnc(-c2cnccn2)c2[nH]cc(C(=O)C(=O)N3CCC(=C(C#N)c4ccccc4)CC3)c12,-,-,luciferase,-,<1 µM
NC(=O)CCNC[C@H](Cc1ccc(O)cc1)NC[C@H](Cc1ccc(O)cc1)NC[C@@H](N)Cc1ccc(O)cc1,-,-,luciferase,-,30 µM
CCCCCC1CN(C(=O)C(=O)c2c[nH]c3cccc(F)c23)CCN1C(=O)c1ccccc1,LAI,-,luciferase / reporter gene,pseudotyped,>5 µM
CC(=O)c1c(C)nc(-c2ccccc2)nc1NC(=O)c1ccccc1,14AG,-,GFP / fluorescence,-,8.7 µM
CNC(=O)c1cc(Cl)nc2c(C(=O)C(=O)N3CCN(C(=O)c4ccccc4)C[C@H]3C)c[nH]c12,-,-,luciferase,-,<1 µM
CN(C(=O)[C@H](Cc1ccccc1)NC(=O)Cc1c[nH]c2ccc(Cl)cc12)c1ccccc1,NL4-3,-,-,-,0.51 µM
COc1ccnc2[nH]cc(C(=O)C(=O)N3CCN(C(=O)c4ccccc4)C[C@H]3C)c12,JR-FL,-,-,-,0.2 µM
N#CC(N)=NCCCCCC[NH+]=C(N)NC(N)=NCCCCCCN=C(N)NC(N)=[NH+]CCCCCCN.[Cl-].[Cl-],IIIB,-,β-galactosidase,-,33 µM
COc1cnc(-c2cnccn2)c2[nH]cc(C(=O)C(=O)N3CCC(=C(c4ccccc4)c4cccnc4)CC3)c12,-,-,luciferase,-,<1 µM
CC1CN(C(=O)c2ccccc2)C(C)CN1C(=O)C(=O)c1c[nH]c2cccc(F)c12,JR-FL,-,luciferase / reporter gene,pseudotyped,0.676 µM
C=C(C(=O)N1CCN(C(=O)c2ccccc2)CC1)c1ccc2cc(OC)ccc2c1,-,-,luciferase / reporter gene,-,<1 µM
CN1c2ccccc2C2C1C=C(C#N)C(=O)N2c1ccc([N+](=O)[O-])cc1,D-92UG046,-,GFP / fluorescence,-,0.21 µM
CCC1CN(C(=O)c2ccccc2)CCN1C(=O)C(=O)c1c[nH]c2cccc(F)c12,LAI,-,luciferase / reporter gene,pseudotyped,0.0071 µM
Cc1cc(C)c(Oc2nc(Nc3ccc(C#N)cc3)nc3ccsc23)c(C)c1,L1001-K103N,-,luciferase,-,0.01–0.1 µM
CCCCCCCCCc1ccc(OCCOCCOCCOCCOCCOCCOCCOCCOCCO)cc1,IIIB,-,β-galactosidase,-,81 µM